A mixed list of measured activities; the numbers were collected in NIAID ChemDB.

Common to all: host cell toxicity; cells: HeLa; read-out: CC50

Rows are shuffled and stem from different studies. An empty or dashed field is not shown. CCn is the concentration with n% toxicity to the cells.

compound	method	value
CCCCCCCC=O	trypan blue	230 µg/mL
Cc1ccc(C(=O)CCCCOc2ccc(C(=O)O)cc2)s1		>314 µM
CCOC(=O)[C@@]1(C)CC[C@]2(C)CC[C@]3(C)C(=CC(=O)[C@@H]4[C@@]5(C)CC/C(=N\OCc6ccc(Br)cc6)C(C)(C)[C@@H]5CC[C@]43C)[C@@H]2C1	MTT	9.89 µM
O=c1cc(N2CCC(N3CCOCC3)CC2)c2cccnc2n1O		<100 µM
CS(=O)(=O)CCCN1C(=O)c2ccccc2C(CC(=O)c2ccccc2)C1=O		183 µM
CC[n+]1c(-c2ccccc2)c2cc(-n3cccc3)ccc2c2ccc(N)cc21		<10 µM
COc1cc(C(=O)Oc2c(-c3ccc(Cl)cc3)oc3ccccc3c2=O)cc(OC)c1OC(C)=O		1.02 µM
c1ccc(COC[C@@H]2CC[C@H](COc3ncnc4nc[nH]c34)O2)cc1		220 µM
CCOC(=O)[C@@]1(C)CC[C@]2(C)CC[C@]3(C)C(=CC(=O)[C@@H]4[C@@]5(C)CC/C(=N\OCc6cc(Br)cc(Br)c6)C(C)(C)[C@@H]5CC[C@]43C)[C@@H]2C1	MTT	18.81 µM
FC(F)(F)c1ccc(-c2nc(=S)[nH][nH]2)cc1	MTT	25.92 µg/mL
C=C(C=O)[C@@H]1CC[C@@]2(C)C1C1CCC3[C@@]4(C)CC[C@H](O)C(C)(C)C4CC[C@@]3(C)[C@]1(C)C[C@@H]2O		>10 µM
CC(/C=C/C(=O)O)C(O)C(C)CC(C)C(O)CC(=O)c1ccc(N)cc1		>100 µg/mL
COc1cc(C(=O)Oc2c(-c3ccc(Cl)c(Cl)c3)oc3ccccc3c2=O)cc(OC)c1O		3.32 µM
CC(=O)NC(CCSC[C@H]1O[C@@H](n2ccc3c(N)ncnc32)[C@H](O)[C@@H]1O)C(=O)O		>400 µg/mL
C[C@H]1NCc2cc(-c3c(F)cc4c(=O)c(C(=O)O)cn(C5CC5)c4c3OC(F)F)ccc21		177 µg/mL
CC1(C)[C@@H](CO)CC[C@@]1(C)Cn1nnc2c(N)ncnc21		>400 µg/mL
O=C(CCCCOc1ccc(C2=NCCO2)cc1)c1ccc(Cl)cc1		>280 µM
CSc1noc(-c2ccc(OCCOc3ccccc3)cc2)c1C#N		>25 µM
CCSc1n[nH]c(-c2cccc([N+](=O)[O-])c2C)n1		7.4 µg/mL
N#Cc1ccc(OCCCCC(=O)c2ccc(F)cc2)cc1		35 µM
CC1=CC(=O)C=C(C/C=C(\C)CC/C=C(\C)CC/C=C(\C)CC[C@@H](C)C(C)(C)O)C1=O		29 µM
CCn1c2c(c(=O)c3cc(C(C)C)ccc31)Cc1ccccc1-2	MTT	>4 µg/mL
CCCCSc1n[nH]c(-c2ccco2)n1		56.6 µg/mL
COc1ccc(C(=O)CCCCOc2c(Cl)cc(C3=NCCO3)cc2Cl)cc1		>237 µM
COc1cc(/C=C/C(=O)Oc2c(-c3ccc(Cl)c(Cl)c3)oc3ccccc3c2=O)ccc1O		1.29 µM
Nc1nccc2c1ncn2[C@H]1CC[C@@H](CO)O1		400 µg/mL
CC(C)[C@@H]1CC[C@@]2(C)C1C1=CCC3[C@@]4(C)CC[C@@H](O)C(C)(C)C4CC[C@@]3(C)[C@]1(C)C[C@@H]2O		>10 µM
CSc1noc(-c2ccc(OCCOc3ccc(Br)cc3)cc2)c1C#N		10 µM
Nc1nccc2c1ncn2[C@@H]1O[C@H](CSCCC(N)C(=O)O)C[C@H]1O		>400 µg/mL
CC(=O)Oc1ccc(/C=C/C(=O)Oc2c(-c3ccc(Cl)cc3)oc3ccccc3c2=O)cc1OC(C)=O		1.91 µM
CCSc1n[nH]c(-c2cccc(C(F)(F)F)c2)n1		7.07 µg/mL
O=c1[nH]c(=O)n([C@H]2C[C@H](O)[C@@H](CO)O2)cc1I	neutral red	45 µg/mL
Nc1nccc(OC[C@@H]2O[C@H](CO)[C@@H](O)[C@H]2O)n1		>250 µM
O=C(O)c1cn(C2CC2)c2cc(N3CCNCC3)ccc2c1=O		168 µg/mL
O=c1c(-c2ccccc2)c(O)c2cc(-c3cccc(-c4ccccc4)c3)cnc2n1O		<100 µM
Fc1ccc(-c2n[nH]c(=S)s2)cc1	MTT	7.15 µg/mL
CC[n+]1c(-c2ccccc2)c2cc(N)ccc2c2ccc(NC(N)=O)cc21		>10 µM
CCOC(=O)c1ccc(OCCCCC(=O)c2ccc(C)cc2)cc1		>293 µM
CC1(C)[C@@H](CO)CC[C@@]1(C)Cn1cnc2c(N)ncnc21		>400 µg/mL
COC1=C(OC)C(O)(CCn2cnc3c(N)ncnc32)OC1=O		157 µM
CCCCCCCCCC(=O)O[C@@H]1[C@@H]2Oc3nc(=N)ccn3[C@@H]2O[C@@H]1CO	neutral red	0.2 µg/mL
CCOC(=O)[C@@]1(C)CC[C@]2(C)CC[C@]3(C)C(=CC(=O)[C@@H]4[C@@]5(C)CC/C(=N\OCc6cc(F)cc(F)c6)C(C)(C)[C@@H]5CC[C@]43C)[C@@H]2C1	MTT	12.65 µM
O=c1c(-c2cccc(Br)c2)c(O)c2cccnc2n1O		<100 µM
Nc1nccc2c1ncn2[C@@H]1O[C@H](CO)C[C@H]1O		40 µg/mL
Nc1nc(Cl)cc(OC[C@H]2O[C@H](COCc3ccccc3)[C@@H](OCc3ccccc3)[C@H]2OCc2ccccc2)n1		>250 µM
COc1cc2c(cc1OC)[C@@H]1C(N)CSCON1CC2		34 µg/mL
C1=CCC2(CC1)COC(c1ccco1)OC2	MTT	>500 µg/mL
CCS(=O)(=O)c1ccc(NCc2ccc(Cl)c(Cl)c2)nc1		>10 µg/mL
CC(C(=O)O)[C@H]1O[C@@H](CC(=O)c2ccc(N)cc2)[C@H](C)C[C@H]1C		>100 µg/mL
O=C(CCCCOc1ccc(C2=NCCO2)cc1)c1ccc(Cl)s1		>271 µM
CCCCN1C(=O)c2ccccc2C(C(C)=O)C1=O		125 µM
CSc1noc(-c2ccc(OCCCc3ccccc3)cc2)c1C#N		>25 µM
CSc1ccc(Cc2ccc(S(C)(=O)=O)cn2)cc1		>10 µg/mL
CCOC(=O)c1ccc(OCCCCC(=O)c2ccc(OC)cc2)cc1		>281 µM
C#CCSc1n[nH]c(-c2cccc(C(F)(F)F)c2)n1	MTT	13.78 µg/mL
C#CCSc1n[nH]c(-c2ccc([N+](=O)[O-])c(C)c2)n1		20.22 µg/mL
Cc1cc(NCCCCCCCCNc2cc(C)nc3cc(N(C)C)ccc23)c2ccc(N(C)C)cc2n1	MTT	>500 µg/mL
O=C(CN1CCN(c2cccc(-c3cc(=O)n(O)c4ncccc34)c2)CC1)N1CCOCC1		<100 µM
NC1CSCON2CCc3c([nH]c4ccccc34)[C@H]12		≥4 µg/mL
O=c1cc(N2CCN(c3ccccc3)CC2)c2cccnc2n1O		<100 µM
C#CCSc1n[nH]c(-c2cccc([N+](=O)[O-])c2C)n1		16.37 µg/mL
Nc1nc(Cl)cc(OC[C@@H]2O[C@H](COCc3ccccc3)[C@@H](OCc3ccccc3)[C@H]2OCc2ccccc2)n1		104 µM
CCCCSc1n[nH]c(-c2ccc([N+](=O)[O-])c(C)c2)n1		4.9 µg/mL
CCCOC(=O)C(CCSC[C@H]1O[C@@H](n2ccc3c(N)ncnc32)[C@H](O)[C@@H]1O)NC(C)=O		100 µg/mL
Nc1ccnc(OC[C@H]2CC[C@@H](CO)O2)n1		230 µM
CCOC(=O)[C@@]1(C)CC[C@]2(C)CC[C@]3(C)C(=CC(=O)[C@@H]4[C@@]5(C)CC/C(=N\OCc6ccccc6Cl)C(C)(C)[C@@H]5CC[C@]43C)[C@@H]2C1	MTT	46.4 µM
C#CCSc1n[nH]c(-c2ccc([N+](=O)[O-])c(C(F)(F)F)c2)n1	MTT	6.08 µg/mL
O=C(CCCCOc1ccc(C2=NCCO2)cc1)c1ccc[nH]1		>320 µM
CCS(=O)(=O)c1ccc(Cc2ccc(Cl)c(Cl)c2)nc1C(N)=O		10 µg/mL
COC1=C(OC)/C(=C/Cn2cnc3c(N)ncnc32)OC1=O		42.35 µM
COc1cc(C(=O)Oc2c(-c3ccc(Cl)cc3)oc3ccccc3c2=O)ccc1O		0.49 µM
CCOC(=O)c1ccc(OC(=O)CCCCCN=C(N)N)cc1.COS(=O)(=O)O	MTT	120 µg/mL
CSCCCN1C(=O)c2ccccc2C(CC(=O)c2ccccc2)C1=O		155 µM
CCOC(=O)[C@@]1(C)CC[C@]2(C)CC[C@]3(C)C(=CC(=O)[C@@H]4[C@@]5(C)CC/C(=N\OCC6(C)COC6)C(C)(C)[C@@H]5CC[C@]43C)[C@@H]2C1	MTT	38.35 µM
Cc1ccc(Cc2ccc(S(C)(=O)=O)cn2)cc1		>10 µg/mL
Cc1ccc(CCCCCOc2ccc(C3=NCCO3)cc2)s1		>303 µM
COc1c(N2CCNC(C)C2)ccc2c(=O)c(C(=O)O)cn(C3CC3)c12		301 µg/mL
CCOC(=O)[C@@]1(C)CC[C@]2(C)CC[C@]3(C)C(=CC(=O)[C@@H]4[C@@]5(C)CC/C(=N\OCC6CCOCC6)C(C)(C)[C@@H]5CC[C@]43C)[C@@H]2C1	MTT	30.31 µM
Nc1ncnc2c([C@@H]3O[C@H](CSCCC(N)C(=O)O)[C@@H](O)[C@H]3O)[nH]nc12		400 µg/mL
Nc1nc(N)nc(OC[C@H]2CC[C@@H](COCc3ccccc3)O2)n1		>250 µM
CC1(C)[C@@H](CO)CC[C@@]1(C)Cn1cc(Br)c(=O)[nH]c1=O		>400 µg/mL